In the data set the test system is microbial cells over eukaryotic cells. As to the kind of experiment: Selectivity index (ratio of the toxicity to the MIC). To be noted: range of selectivity indices, N/O = no observed antimicrobial activity; for Selectivity Index S. aureus: S. aureus (third of three slash-separated values); for Selectivity Index S. Enteritidis: S. Enteritidis (second of three slash-separated values); for Selectivity Index E. coli: E. coli (first of three slash-separated values).

Each structure is given as a SMILES string. Where a SMILES comes first, the peptide text is derived from it. Some results are limits rather than exact numbers.

For the molecule `CC[C@H](C)[C@H](NC(=O)[C@H](CC(C)C)NC(=O)[C@H](CCCCN)NC(=O)[C@H](CC(C)C)NC(=O)CNC(=O)CNC(=O)[C@H](CCCCN)NC(=O)[C@@H](NC(=O)[C@H](CC(C)C)NC(=O)[C@H](CCCCN)NC(=O)CNC(=O)[C@@H](NC(=O)[C@H](CC(C)C)NC(=O)CN)C(C)C)C(C)C)C(=O)NCC(=O)N[C@@H](Cc1c[nH]cn1)C(=O)N[C@H](C(=O)N[C@@H](C)C(=O)N[C@@H](CC(N)=O)C(=O)NCC(=O)O)C(C)C` [RaSi1] (H-GLVGKLVKGGLKLIGHVANG-OH; N-terminus and C-terminus assumed), the “Selectivity Index S. aureus” value is given as “N/O”.

With `CC[C@H](C)[C@H](NC(=O)CN)C(=O)N[C@@H](Cc1ccccc1)C(=O)NCC(=O)NCC(=O)N[C@@H](CC(C)C)C(=O)N[C@@H](CC(C)C)C(=O)N[C@@H](CCCCN)C(=O)N[C@@H](CCC(=O)O)C(=O)NCC(=O)N[C@@H](CCCCN)C(=O)N[C@@H](CCCCN)C(=O)N[C@H](C(=O)N[C@@H](C)C(=O)N[C@@H](CS)C(=O)NCC(=O)N[C@@H](CC(C)C)C(=O)N[C@@H](CO)C(=O)NCC(=O)N[C@@H](CC(C)C)C(=O)N[C@@H](CS)C(=O)O)[C@@H](C)CC` [OdTo3] (H-GIFGGLLKEGKKIACGLSGLC-OH; N-terminus and C-terminus assumed), the “Selectivity Index S. Enteritidis” value is on record as “N/O” and the “Selectivity Index S. aureus” value was “N/O”.

As to `CC[C@H](C)[C@H](NC(=O)CN)C(=O)N[C@@H](CC(C)C)C(=O)N[C@@H](CO)C(=O)NCC(=O)N[C@@H](CC(C)C)C(=O)N[C@@H](CC(C)C)C(=O)NCC(=O)N[C@@H](C)C(=O)NCC(=O)N[C@@H](CCCCN)C(=O)N[C@@H](CCCCN)C(=O)N[C@H](C(=O)N[C@H](C(=O)N[C@@H](CS)C(=O)NCC(=O)N[C@@H](CC(C)C)C(=O)N[C@@H](CO)C(=O)NCC(=O)N[C@@H](CC(C)C)C(=O)N[C@@H](CS)C(=O)O)C(C)C)[C@@H](C)CC` [OdMa5] (H-GILSGLLGAGKKIVCGLSGLC-OH; N-terminus and C-terminus assumed), the “Selectivity Index E. coli” value was 8- 16, the “Selectivity Index S. Enteritidis” value is 8- 16 and the “Selectivity Index S. aureus” value was 1- 2.

For `CC[C@H](C)[C@H](NC(=O)CN)C(=O)N[C@@H](Cc1ccccc1)C(=O)NCC(=O)NCC(=O)N[C@@H](Cc1c[nH]cn1)C(=O)N[C@@H](CC(C)C)C(=O)N[C@@H](CCCCN)C(=O)N[C@H](C(=O)NCC(=O)N[C@@H](CCCCN)C(=O)N[C@@H](CCCCN)C(=O)N[C@H](C(=O)N[C@@H](C)C(=O)N[C@@H](CS)C(=O)NCC(=O)N[C@@H](CC(C)C)C(=O)N[C@@H](CO)C(=O)NCC(=O)N[C@@H](CC(C)C)C(=O)N[C@@H](CS)C(=O)O)[C@@H](C)CC)C(C)C` [OdTo2] (H-GIFGGHLKVGKKIACGLSGLC-OH; N-terminus and C-terminus assumed), the “Selectivity Index E. coli” value is above 4, the “Selectivity Index S. Enteritidis” value is “N/O” and the “Selectivity Index S. aureus” value was “N/O”.

As to `CC[C@H](C)[C@H](NC(=O)CNC(=O)[C@H](CO)NC(=O)[C@@H](NC(=O)[C@H](CC(C)C)NC(=O)CN)[C@@H](C)CC)C(=O)N[C@@H](CC(C)C)C(=O)NCC(=O)N[C@@H](C)C(=O)NCC(=O)N[C@@H](CCCCN)C(=O)N[C@@H](CCCCN)C(=O)N[C@H](C(=O)N[C@@H](CC(C)C)C(=O)N[C@@H](CS)C(=O)O)C(C)C` [OdMa9, GLISGILGAGKKVLC] (H-GLISGILGAGKKVLC-OH; N-terminus and C-terminus assumed), the “Selectivity Index S. Enteritidis” value was “N/O”.

`CC[C@H](C)[C@H](NC(=O)CN)C(=O)N[C@@H](CC(C)C)C(=O)N[C@@H](CO)C(=O)NCC(=O)N[C@@H](CC(C)C)C(=O)N[C@@H](CC(C)C)C(=O)NCC(=O)N[C@@H](C)C(=O)NCC(=O)N[C@@H](CCCCN)C(=O)N[C@@H](CCCCN)C(=O)N[C@H](C(=O)N[C@H](C(=O)N[C@@H](CS)C(=O)NCC(=O)N[C@@H](CC(C)C)C(=O)N[C@@H](CO)C(=O)NCC(=O)N[C@@H](CCSC)C(=O)N[C@@H](CS)C(=O)O)C(C)C)[C@@H](C)CC` [RaOm2] (H-GILSGLLGAGKKIVCGLSGMC-OH; N-terminus and C-terminus assumed): the “Selectivity Index S. Enteritidis” value is “N/O” and the “Selectivity Index S. aureus” value is given as “N/O”.

With `CC[C@H](C)[C@H](NC(=O)CN)C(=O)N[C@@H](CC(C)C)C(=O)N[C@@H](CO)C(=O)NCC(=O)N[C@@H](CC(C)C)C(=O)N[C@@H](CC(C)C)C(=O)NCC(=O)N[C@@H](C)C(=O)NCC(=O)N[C@@H](CCCCN)C(=O)N[C@@H](CCCCN)C(=O)N[C@H](C(=O)N[C@H](C(=O)N[C@@H](CS)C(=O)O)C(C)C)[C@@H](C)CC` [OdMa4, GILSGLLGAGKKIVC] (H-GILSGLLGAGKKIVC-OH; N-terminus and C-terminus assumed), the “Selectivity Index S. Enteritidis” value is listed as “N/O”.

With `CC[C@H](C)[C@H](NC(=O)CNC(=O)[C@H](CCCNC(=N)N)NC(=O)[C@H](CC(C)C)NC(=O)[C@H](CC(C)C)NC(=O)CN)C(=O)N[C@@H](CC(C)C)C(=O)NCC(=O)N[C@@H](C)C(=O)NCC(=O)N[C@@H](CCCCN)C(=O)N[C@@H](CCCCN)C(=O)N[C@H](C(=O)N[C@H](C(=O)N[C@@H](CS)C(=O)NCC(=O)N[C@@H](CC(C)C)C(=O)N[C@@H](CO)C(=O)NCC(=O)N[C@@H](CC(C)C)C(=O)N[C@@H](CS)C(=O)O)C(C)C)[C@@H](C)CC` [OdMa2] (H-GLLRGILGAGKKIVCGLSGLC-OH; N-terminus and C-terminus assumed), the “Selectivity Index E. coli” value is reported as 32, the “Selectivity Index S. Enteritidis” value is recorded as 16- 32 and the “Selectivity Index S. aureus” value was 8- 16.

On to `CC(C)C[C@H](NC(=O)[C@@H](NC(=O)[C@H](Cc1ccccc1)NC(=O)[C@H](C)NC(=O)CN)C(C)C)C(=O)N[C@@H](Cc1c[nH]c2ccccc12)C(=O)NCC(=O)N1CCC[C@H]1C(=O)N[C@H](C(=O)N1CCC[C@H]1C(=O)N[C@@H](CCCNC(=N)N)C(=O)N1CCC[C@H]1C(=O)N[C@@H](CCCNC(=N)N)C(=O)N[C@@H](CCCNC(=N)N)C(=O)N[C@@H](CCCNC(=N)N)C(=O)O)[C@@H](C)O` [DiLo1, GAFVLWGPTPRPRRR] (H-GAFVLWGPTPRPRRR-OH; N-terminus and C-terminus assumed), for which the “Selectivity Index E. coli” value is recorded as above 1, the “Selectivity Index S. Enteritidis” value is “N/O” and the “Selectivity Index S. aureus” value is on record as “N/O”.

For `CC[C@H](C)[C@H](NC(=O)CN)C(=O)N[C@@H](CC(C)C)C(=O)N[C@@H](CCCNC(=N)N)C(=O)N[C@@H](CO)C(=O)N[C@@H](CC(C)C)C(=O)NCC(=O)N[C@@H](Cc1c[nH]c2ccccc12)C(=O)N[C@H](C(=O)N[C@@H](CCC(N)=O)C(=O)N[C@@H](CCSC)C(=O)N1CCC[C@H]1C(=O)N[C@@H](CCCNC(=N)N)C(=O)N[C@@H](CO)C(=O)N[C@@H](CCCNC(=N)N)C(=O)N[C@@H](CCCNC(=N)N)C(=O)N[C@@H](CCCNC(=N)N)C(=O)N[C@@H](Cc1c[nH]cn1)C(=O)N[C@@H](CCCNC(=N)N)C(=O)O)[C@@H](C)CC` [AnFI2, GILRSLGWIQMPRSRRRHR] (H-GILRSLGWIQMPRSRRRHR-OH; N-terminus and C-terminus assumed), the “Selectivity Index E. coli” value was 16-32, the “Selectivity Index S. Enteritidis” value amounted to 128 and the “Selectivity Index S. aureus” value is on record as above 128.

For the molecule `CC[C@H](C)[C@H](NC(=O)CNC(=O)[C@H](CO)NC(=O)[C@@H](NC(=O)[C@H](CC(C)C)NC(=O)CN)[C@@H](C)CC)C(=O)N[C@@H](CC(C)C)C(=O)NCC(=O)N[C@@H](C)C(=O)NCC(=O)N[C@@H](CCCCN)C(=O)N[C@@H](CCCCN)C(=O)N[C@H](C(=O)N[C@@H](CC(C)C)C(=O)N[C@@H](CS)C(=O)NCC(=O)N[C@@H](CC(C)C)C(=O)N[C@@H](CO)C(=O)NCC(=O)N[C@@H](CC(C)C)C(=O)N[C@@H](CS)C(=O)O)C(C)C` [OdMa10] (H-GLISGILGAGKKVLCGLSGLC-OH; N-terminus and C-terminus assumed), the “Selectivity Index S. aureus” value is reported as “N/O”.

With `CC[C@H](C)[C@H](NC(=O)[C@H](CCCCN)NC(=O)[C@@H](N)CCCNC(=N)N)C(=O)N[C@H](C(=O)N[C@@H](C)C(=O)N[C@H](C(=O)N[C@@H](CO)C(=O)N[C@H](C(=O)N[C@@H](Cc1c[nH]cn1)C(=O)N[C@@H](CCCCN)C(=O)N[C@@H](CC(C)C)C(=O)N[C@@H](CS)C(=O)N[C@@H](CCCNC(=N)N)C(=O)N[C@H](C(=O)N[C@@H](CCCCN)C(=O)N[C@@H](CCCNC(=N)N)C(=O)O)C(C)C)C(C)C)C(C)C)[C@@H](C)CC` [BoUs1, RKIIAVSVHKLCRVKR] (H-RKIIAVSVHKLCRVKR-OH; N-terminus and C-terminus assumed), the “Selectivity Index S. Enteritidis” value is “N/O”.

`CC[C@H](C)[C@H](NC(=O)[C@H](CCCNC(=N)N)NC(=O)[C@H](CCCNC(=N)N)NC(=O)[C@@H]1CCCN1C(=O)[C@H](CS)NC(=O)[C@H](CS)NC(=O)[C@H](Cc1ccc(O)cc1)NC(=O)[C@H](CS)NC(=O)[C@H](CC(C)C)NC(=O)[C@@H](NC(=O)[C@H](CCCNC(=N)N)NC(=O)[C@@H](NC(=O)[C@H](Cc1ccccc1)NC(=O)[C@H](C)N)C(C)C)[C@@H](C)CC)C(=O)N[C@@H](CCCCN)C(=O)N[C@@H](CCCNC(=N)N)C(=O)N[C@@H](CCCNC(=N)N)C(=O)O` [TeRu2, AFVRILCYCCPRRIKRR] (H-AFVRILCYCCPRRIKRR-OH; N-terminus and C-terminus assumed): the “Selectivity Index S. Enteritidis” value is listed as “N/O”.

As to `CC[C@H](C)[C@H](NC(=O)[C@@H]1CCCN1C(=O)[C@H](CS)NC(=O)[C@H](C)NC(=O)[C@@H](N)Cc1ccccc1)C(=O)NCC(=O)N[C@@H](Cc1ccccc1)C(=O)N[C@@H](Cc1ccccc1)C(=O)N[C@@H](CCCNC(=N)N)C(=O)N[C@@H](CC(C)C)C(=O)N[C@@H](CCCCN)C(=O)N[C@@H](CCCNC(=N)N)C(=O)O` [CaCa1, FACPIGFFRLKR] (H-FACPIGFFRLKR-OH; N-terminus and C-terminus assumed), the “Selectivity Index E. coli” value is above 1, the “Selectivity Index S. Enteritidis” value was “N/O” and the “Selectivity Index S. aureus” value was “N/O”.
